Measured values from several laboratories, pooled; numbers as filed in NIAID ChemDB.

All rows: growth or infection tests; species: HIV-1; method: syncytia; endpoint: fold resistance

Conditions beyond the fields shown may differ between rows. Fold resistance: result on the changed form divided by that on wild type. An empty or dashed field is not shown.

structure | cells | mutations | strain or isolate | result
Cc1occc1C(=S)Nc1ccc(Cl)c(OC(=O)OC(C)C)c1 | CEM | RT-V106A | - | 8.18
CCCCCOC(=O)c1cc(NC(=O)C2=C(C)OCCS2)ccc1Cl | CEM | RT-L100I | TIBO-resistant (RT L100I) | 5.83
COc1ccc(NC(=S)C2=C(C)OCCS2)cc1OCC=C(Cl)Cl | CEM | RT-Y181C | Pyridone-resistant (RT Y181C) | 7.41
COc1ccccc1C(=S)Nc1ccc(Cl)c(C(=O)OC(C)C)c1 | CEM | RT-Y181C | - | 46
COc1ccc(NC(=S)c2ccoc2C)cc1OCC=C(Cl)Cl | CEM | RT-K103N | TIBO R82913-resistant (RT K103N) | 133
Cc1ccsc1C(=O)Nc1ccc(Cl)c(C(=O)OC2CCCCC2)c1 | CEM | RT-Y181C | - | 26.3
CN1CCN(C(=O)c2ccc3c(=O)c4ccccc4[nH]c3c2)CC1 | CEM | RT-L100I | TIBO-resistant (RT L100I) | 64.3
CC(C)OC(=O)Oc1cc(NC(=S)OC(C)C)ccc1Cl | CEM | RT-E138K | - | 2.5
CCOCn1c(Sc2cc(C)cc(C)c2)c(CC)c(=O)[nH]c1=O | CEM | RT-L100I | IIIB (TIBO 82150) (RT-L100I) | 1.5
Cc1occc1C(=O)Nc1ccc(Cl)c(/C=N/N(C)C)c1 | CEM | RT-K103N | R82913-resistant (RT K103N) | <8.89
CCCCC(CC)COC(=O)c1cc(NC(=S)OC(C)C)ccc1Cl | CEM | RT-L100I | - | 106
CCc1c(Sc2ccccc2)n(COCc2ccccc2)c(=S)[nH]c1=O | CEM | RT-Y188H | IIIB | ≥8330
Cc1ccsc1C(=O)Nc1ccc(Cl)c(/C=N/OC(C)(C)C)c1 | CEM | RT-V106A | - | 6.99
CC(C)=CCOc1cc(NC(=S)c2ccoc2C)ccc1Cl | CEM | RT-K103N | IIIB | 8
Cc1sccc1C(=S)Nc1ccc(Cl)c(OCCC(C)C)c1 | CEM | RT-K103N | - | 13.1
CCOC(=O)C(C)Oc1cc(NC(=S)OC(C)C)ccc1Cl | CEM | RT-V106A | - | 2.31
Cc1sccc1C(=S)Nc1ccc(Cl)c(OCC=C(Cl)Cl)c1 | CEM | RT-L100I | TIBO R82150-resistant (RT L100I) | 9.29
COC(=O)c1cc(NC(=O)C2=C(C)OCCS2)ccc1Cl | CEM | RT-Y181C | PYR-resistant (RT Y181C) | >2.5
CC(C)OC(=O)c1cc(NC(=S)c2ccco2)ccc1Cl | CEM | RT-V106A | - | 15
CC(C)OC(=S)Nc1ccc(Cl)c(COC(C)(C)C)c1 | CEM | RT-V106A | - | ≥2.22
CCOCn1c(Cc2ccccc2)c(CC)c(=O)[nH]c1=O | CEM | RT-E138K | IIIB | 5.625
CCC(CC)COC(=O)c1cc(NC(=S)OC(C)C)ccc1Cl | CEM | RT-E138K | - | 16.6
O=C(Nc1ccc(Cl)c(C(=O)OC2CCCCC2)c1)c1ccccc1F | CEM | RT-Y181C | - | 8.125
Cc1occc1C(=S)Nc1ccc(Cl)c(/C=N/OC(C)(C)C)c1 | CEM | RT-L100I | IIIB | 1.7
CC(C)OC(=S)Nc1ccc(Cl)c(C(=O)OC2(C)COC2)c1 | CEM | RT-V106A | - | 17
CCC1=C(C(=O)Nc2ccc(Cl)c(C(=O)OCC(C)C)c2)SCCO1 | CEM | RT-Y181C | PYR-resistant (RT Y181C) | 12
Cc1ccccc1C(=S)Nc1ccc(Cl)c(C(=O)OC(C)C)c1 | CEM | RT-L100I | - | 18.7
Cc1cc(C)c(CS(=O)c2cccc[n+]2[O-])c(C)c1 | CEM | RT-Y181C | IIIB | 4.14
Cc1ccccc1OC(=O)c1cc(NC(=S)OC(C)C)ccc1Cl | CEM | RT-E138K | - | 18.8
C=C(C)[C@@H]1CC[C@]2(C(=O)NCCCCCCCC(=O)N[C@@H](CC(C)C)[C@@H](O)CC(=O)O)CC[C@]3(C)[C@H](CC[C@@H]4[C@@]5(C)CC[C@H](O)C(C)(C)[C@@H]5CC[C@]43C)[C@@H]12 | HeLa P4 + HeLa | GP41-I69V | LAI | ~1
CC(C)OC(=O)c1cc(NC(=S)c2ccsc2)ccc1Cl | CEM | RT-L100I | - | 10
CN1CCN(C(=O)c2ccc3c(=O)c4ccccc4[nH]c3c2)CC1 | CEM | RT-E138K | - | 70.9
Cc1occc1C(=O)Nc1ccc(Cl)c(SCC=C(Cl)Cl)c1 | CEM | RT-E138K | TSAO-m3T-resistant (RT E138K) | 7.31
CC[C@@H](C)OC(=S)Nc1ccc(Cl)c(C(=O)OC(C)C)c1 | CEM | RT-V106A | - | 1.98
CC(C)OC(=O)c1cc(NC(=S)OC(C)C)ccc1Cl | CEM | RT-E138K | IIIB | 43
Cc1ccsc1C(=S)Nc1ccc(Cl)c(C(=O)OC(C)C)c1 | CEM | RT-E138K | - | 26.7
Cc1cc(C)cc(Cc2c(C(C)C)c(=O)[nH]c(=O)n2COCCO)c1 | CEM | RT-Y181C | IIIB | 20
Cc1ccsc1C(=S)Nc1ccc(Cl)c(/C=N/OC(C)(C)C)c1 | CEM | RT-V106A | - | 20
CC(C)OC(=O)c1cc(NC(=S)OC(C)C)ccc1Cl | CEM | RT-Y181C | - | 67.9
Cc1ccc(C)c(CS(=O)c2ccc(Cl)c[n+]2[O-])c1 | CEM | RT-K103N | IIIB | 4.5
CC(C)=CCOc1cc(NC(=S)c2ccoc2C)ccc1Cl | CEM | RT-Y181C | - | 5
CC1=C(C(=O)Nc2ccc(Cl)c(C(=O)OC3CCCCC3C)c2)SCCO1 | CEM | RT-Y181C | PYR-resistant (RT Y181C) | 13
C/C=C/COc1cc(NC(=S)c2ccoc2C)ccc1Cl | CEM | RT-Y181C | - | 29
CCCCOC(=O)c1cc(NC(=O)C2=C(C)OCCS2)ccc1Cl | CEM | RT-L100I | TIBO-resistant (RT L100I) | 17.5
CC(C)OC(=S)Nc1ccc(Cl)c(C(=O)O)c1 | CEM | RT-L100I | - | >1
CC(C)=CCOc1cc(NC(=S)c2ccsc2C)ccc1Cl | CEM | RT-E138K | - | 1.9
COc1ccc(C)cc1CS(=O)(=O)c1cccc[n+]1[O-] | CEM | RT-K103N | IIIB | 7.5
CC(C)OC(=O)c1cc(NC(=S)c2cccs2)ccc1Cl | CEM | RT-Y181C | - | 27
CC1=C(C(=O)Nc2ccc(Cl)c(C(=O)OC(C)C)c2)SCCO1 | CEM | RT-L100I | - | ≥140
Cn1cccc1C(=S)Nc1ccc(Cl)c(/C=N/OC(C)(C)C)c1 | CEM | RT-K103N | - | 5.9
CCCOC(=O)c1ccc(C)c(NC(=O)C2=C(C)OCCS2)c1 | CEM | RT-V106A | Nevirapine-resistant (RT V106A) | >10
C=CCOc1cc(NC(=S)c2sccc2C)ccc1OC | CEM | RT-L100I | - | 108
Cc1occc1C(=S)Nc1ccc(Cl)c(SCC=C(Cl)Cl)c1 | CEM | RT-Y188H | HEPT-resistant (RT Y188H) | 400
CC(C)OC(=S)Nc1ccc(Cl)c(C(=O)OCC(F)(F)F)c1 | CEM | RT-L100I | - | 21.4
C=C(Cl)COc1cc(NC(=S)c2ccsc2C)ccc1C#N | CEM | RT-L100I | TIBO R82150-resistant (RT L100I) | 6.67
C#CCO/N=C/c1cc(NC(=S)c2ccoc2C)ccc1Cl | CEM | RT-V106A | - | 13.3
CC(C)c1c(Sc2ccccc2)n(COCc2ccccc2)c(=O)[nH]c1=O | CEM | Nevirapine resistant (RT Y181C) | IIIB | 83.3
CC1=C(C(=O)Nc2ccc(Cl)c(C(=O)OC(C)C)c2)SCCO1 | CEM | RT-E138K | IIIB | >1450
CCCSC(=Nc1ccc(Cl)c(C(=O)OC(C)C)c1)OC(C)C | CEM | RT-E138K | - | 13
Cc1sccc1C(=S)Nc1ccc(Cl)c(C(=O)OC2CCCCC2)c1 | CEM | RT-L100I | - | 12.1
CC(C)OC(=O)Nc1ccc(Cl)c(C(=O)OC(C)C)c1 | CEM | RT-E138K | - | >1.82
C/C(Cl)=C/COc1cc(NC(=O)c2ccoc2C)ccc1Cl | CEM | RT-Y188H | HEPT-resistant (RT Y188H) | 222
CC(C)OC(=S)Nc1ccc(Cl)c(C(=O)OC(C)(C)C)c1 | CEM | RT-Y181C | - | 150
Cc1occc1C(=O)Nc1ccc(Cl)c(C(=O)OC(C)C2CC2)c1 | CEM | RT-L100I | - | 17.1
CC(C)OC(=S)Nc1ccc(Cl)c(C(=O)OC2CC2)c1 | CEM | RT-V106A | - | 50.2
COCC1=C(C(=O)Nc2ccc(Cl)c(C(=O)OC(C)C)c2)SCCO1 | CEM | RT-L100I | TIBO-resistant (RT L100I) | >14.3

The first 5 rows once more:

Cc1occc1C(=S)Nc1ccc(Cl)c(OC(=O)OC(C)C)c1 ; cells: CEM ; mutations: RT-V106A ; result: 8.18
CCCCCOC(=O)c1cc(NC(=O)C2=C(C)OCCS2)ccc1Cl ; cells: CEM ; mutations: RT-L100I ; strain or isolate: TIBO-resistant (RT L100I) ; result: 5.83
COc1ccc(NC(=S)C2=C(C)OCCS2)cc1OCC=C(Cl)Cl ; cells: CEM ; mutations: RT-Y181C ; strain or isolate: Pyridone-resistant (RT Y181C) ; result: 7.41
COc1ccccc1C(=S)Nc1ccc(Cl)c(C(=O)OC(C)C)c1 ; cells: CEM ; mutations: RT-Y181C ; result: 46
COc1ccc(NC(=S)c2ccoc2C)cc1OCC=C(Cl)Cl ; cells: CEM ; mutations: RT-K103N ; strain or isolate: TIBO R82913-resistant (RT K103N) ; result: 133